Pooled drug test results. Numbers come from NIAID ChemDB, via PubChem.

Common to all: whole-cell or culture tests; agent: Candida albicans; endpoint: MBC

Conditions beyond the fields shown may differ between rows.

{"structure": "CCCCCCCCCCCC[N+](C)(C)COC1CCCCC1", "strain": "ATCC 10231", "value": "138 µM"}
{"structure": "Cc1ccc(N=Nc2ccc(O)c(C[N+](C)(C)COC3CCCCCC3)c2)cc1", "value": "143 µM"}
{"structure": "COc1ccc(NC(=O)CSC2NC(c3ccc4c(c3)OCO4)=CC(c3cc(OC)c(OC)c(OC)c3)N2)cc1", "strain": "DSM 70014", "value": "100 µg/mL"}
{"structure": "CCCCCCCCCCCCOC[n+]1cccc(NCNc2ccc[n+](COCCCCCCCCCCCC)c2)c1", "strain": "ATCC 10231", "value": "187 µM"}
{"structure": "CCCOC[N+](C)(C)Cc1cc(N=Nc2ccc(Cl)cc2)ccc1O", "value": "2512 µM"}
{"structure": "CCCCOC[n+]1cccc(NCn2nnc3ccccc32)c1", "strain": "ATCC 10231", "value": ">1439 µM"}
{"structure": "COc1cc(C2C=C(c3ccc4c(c3)OCO4)NC(SCC(=O)Nc3ccc(Cl)cc3)N2)cc(OC)c1OC", "strain": "DSM 70014", "value": "100 µg/mL"}
{"structure": "CCCCCCCCCCOC[n+]1cccc(NCn2nnc3ccccc32)c1", "strain": "ATCC 10231", "value": "290 µM"}
{"structure": "CCCCCCCCCCCC[N+](C)(C)COCC(CC)CC", "strain": "ATCC 10231", "value": "27.5 µM"}
{"structure": "COc1ccc(C2=NN(C=O)C(c3cc(OC)c(OC)c(OC)c3)C2)cc1OC", "strain": "DSM 70014", "value": "100 µg/mL"}
{"structure": "C[N+](C)(COC1CCCCCC1)Cc1cc(N=Nc2ccc(Cl)cc2)ccc1O", "value": "256 µM"}
{"structure": "CCCCCCCCCCCC[N+](C)(C)COCCC(C)C", "strain": "ATCC 10231", "value": "28.6 µM"}
{"structure": "CCCCCCCOC[N+](C)(C)Cc1cc(N=Nc2ccc(Cl)cc2)ccc1O", "value": "1101 µM"}
{"structure": "COc1cc(C2CC(c3ccc4c(c3)OCO4)=NN2C(C)=O)cc(OC)c1OC", "strain": "DSM 70014", "value": "50 µg/mL"}
{"structure": "CCCCCCCC[N+](C)(C)COCC(CC)CCCC", "strain": "ATCC 10231", "value": "149 µM"}
{"structure": "CCCCCCCOC[n+]1cccc(NCn2nnc3ccccc32)c1", "strain": "ATCC 10231", "value": ">1284 µM"}
{"structure": "CCCCCCCCCCCC[N+](C)(C)CSCCCCC", "strain": "ATCC 10231", "value": "137 µM"}
{"structure": "COc1cc(/C=C/C(=O)c2ccc3c(c2)OCO3)cc(OC)c1OC", "strain": "DSM 70014", "value": "50 µg/mL"}

For reference, 2 entries again:

structure,strain,value
CCCCCCCC[N+](C)(C)COCC(CC)CCCC,ATCC 10231,149 µM
COc1ccc(C2=NN(C=O)C(c3cc(OC)c(OC)c(OC)c3)C2)cc1OC,DSM 70014,100 µg/mL